Experimental findings from paper PMC11065945 are described below.

This series concerns N[C@H](COP(=O)(O)O)Cc1c[nH]cn1. Nature of the series: purified protein. Conditions: pH 8.0.

With “Rv2231c (Mycobacterium tuberculosis H37Rv)”, the Km was found to be 600 ± 50 µM.

As usually defined, the Km is the substrate concentration at which the rate is half of its maximum.
